PubChem BioAssay AID1259414 – Drosophila RNAi Screening Center, 2018

Aim: 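Fly genes that alter Wolbachia amount inside host cells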 (primary screen)
Cells: Drosophila JW18 cells infected with Wolbachia
Reagent: long dsRNA against Drosophila genes, 0.25 µg dsRNA per well of a 384-well plate
Time to read-out: 5 days
Treatment: cells persistently infected with Wolbachia before knock-down; no added drug
Detection: 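Automated imaging of bacterial rRNA staining divided by host cell count, reported as plate-normalised robust z-score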
Scale: Wolbachia per cell robust z: higher = more Wolbachia per host cell than the plate typical
Hit rule: 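Hit when robust z is 1.5 or more, or -1.5 or less, in at least two of three replicates; excludes dsRNAs with several or no targets, genes not expressed in JW18 and well A1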
The deposit covers about 24,000 reagents; below is a random part of those with a known target gene and a result. Over the whole deposit, about 1,210 (5%) were called active. 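Inactive calls also include excluded dsRNAs with several or no targets, genes unexpressed in JW18, and well A1, regardless of score.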 A number with no mark means an inactive call. No sequences are given here.

{"target": "comr", "amplicon": "DRSC04138", "Wolbachia per cell robust z, rep 1": 0.331, "Wolbachia per cell robust z, rep 2": 0.542, "Wolbachia per cell robust z, rep 3": 0.214}
{"target": "otk", "amplicon": "DRSC07658", "Wolbachia per cell robust z, rep 1": 0.352, "Wolbachia per cell robust z, rep 2": -1.78, "Wolbachia per cell robust z, rep 3": 0.53}
{"target": "otk", "amplicon": "DRSC29192", "Wolbachia per cell robust z, rep 1": -0.495, "Wolbachia per cell robust z, rep 2": 0.5, "Wolbachia per cell robust z, rep 3": 0.214}
{"target": "Hipk", "amplicon": "DRSC07885", "Wolbachia per cell robust z, rep 1": -1.05, "Wolbachia per cell robust z, rep 2": -4.95, "Wolbachia per cell robust z, rep 3": 1.46}
{"target": "Hipk", "amplicon": "DRSC23155", "Wolbachia per cell robust z, rep 1": -0.498, "Wolbachia per cell robust z, rep 2": -0.11, "Wolbachia per cell robust z, rep 3": -0.185}
{"target": "DIP-delta", "amplicon": "DRSC10214", "Wolbachia per cell robust z, rep 1": -0.933, "Wolbachia per cell robust z, rep 2": 0.154, "Wolbachia per cell robust z, rep 3": 0.321}
{"target": "DIP-delta", "amplicon": "DRSC10450", "Wolbachia per cell robust z, rep 1": -0.369, "Wolbachia per cell robust z, rep 2": -4.03, "Wolbachia per cell robust z, rep 3": 0.856}
{"target": "dpn", "amplicon": "DRSC07605", "Wolbachia per cell robust z, rep 1": 0.432, "Wolbachia per cell robust z, rep 2": 1.68, "Wolbachia per cell robust z, rep 3": -1.55}
{"target": "dpn", "amplicon": "DRSC28443", "Wolbachia per cell robust z, rep 1": -0.116, "Wolbachia per cell robust z, rep 2": 0.196, "Wolbachia per cell robust z, rep 3": -0.259}

Part of the list above, set out differently:
comr [DRSC04138] | Wolbachia per cell robust z, rep 1: 0.331; Wolbachia per cell robust z, rep 2: 0.542; Wolbachia per cell robust z, rep 3: 0.214
otk [DRSC07658] | Wolbachia per cell robust z, rep 1: 0.352; Wolbachia per cell robust z, rep 2: -1.78; Wolbachia per cell robust z, rep 3: 0.53

Further results follow:
{"target": "CG14671", "amplicon": "DRSC12257", "Wolbachia per cell robust z, rep 1": -0.45, "Wolbachia per cell robust z, rep 2": 0.179, "Wolbachia per cell robust z, rep 3": -1.51}
{"target": "GstD2", "amplicon": "DRSC16684", "Wolbachia per cell robust z, rep 1": "-4.66 (active)", "Wolbachia per cell robust z, rep 2": 0.91, "Wolbachia per cell robust z, rep 3": -1.57}
{"target": "GstD2", "amplicon": "DRSC27903", "Wolbachia per cell robust z, rep 1": -7.37, "Wolbachia per cell robust z, rep 2": -0.266, "Wolbachia per cell robust z, rep 3": -0.404}
{"target": "Oatp33Ea", "amplicon": "DRSC02859", "Wolbachia per cell robust z, rep 1": -3.49, "Wolbachia per cell robust z, rep 2": 0.936, "Wolbachia per cell robust z, rep 3": 1.13}
{"target": "Oatp33Ea", "amplicon": "DRSC26461", "Wolbachia per cell robust z, rep 1": -2.6, "Wolbachia per cell robust z, rep 2": -0.587, "Wolbachia per cell robust z, rep 3": -0.627}
{"target": "Oga", "amplicon": "DRSC15901", "Wolbachia per cell robust z, rep 1": 0.223, "Wolbachia per cell robust z, rep 2": -0.73, "Wolbachia per cell robust z, rep 3": -0.299}
{"target": "Fibp", "amplicon": "DRSC11031", "Wolbachia per cell robust z, rep 1": -0.885, "Wolbachia per cell robust z, rep 2": -0.578, "Wolbachia per cell robust z, rep 3": -4.57}
{"target": "Fibp", "amplicon": "DRSC26529", "Wolbachia per cell robust z, rep 1": "-2.15 (active)", "Wolbachia per cell robust z, rep 2": -1.59, "Wolbachia per cell robust z, rep 3": -0.725}
